From patent US8975247B2, “Methods and compositions of treating a flaviviridae family viral infection” (priority 2009, dated 2015)

Columns and labels:
[1] = MTT assay for HCV replicon reporter cell lines (cell toxicity); conditions: human
[2] = system: HCV replicon reporter cell lines (Huh7); assay: as above; conditions: read-out: Cell Viability EC50; MTT, replicon cells, 48 hours
[3] = type: in vivo

| SMILES | EC50 at 48 h [1] [µM] | EC50 [2] [µM] | also measured |
| --- | --- | --- | --- |
| Clc1ccc(Cn2c(/C=C/C3CCN(CC4CCCCC4)C3)nc3cc(Br)ccc32)cc1 (stereo not drawn) [EBP933] | > 25 |  |  |
| Cc1cc2nc(CCC3CCCN3C)n(Cc3ccc(Cl)cc3)c2cc1C (stereo not drawn) [EBP661] | > 25 |  |  |
| Cc1cc2nc(CCC3CCNC3)n(Cc3ccc(Cl)cc3)c2cc1C (stereo not drawn) [EBP553] |  | > 25 |  |
| Clc1ccc(Cn2c(CN3CCCC3)nc3ccccc32)cc1 [clemizole] |  |  | plasma levels of clemizole relative to EC50 for genotype 1 (>20 μM) and genotype 2 (8 μM) ([3]; 100 mg po BID, entire treatment period): below the EC50; theoretical levels of clemizole in the liver relative to EC50 for genotype 1b (>20 μM) ([3]; estimated to be 100× blood levels, at all times): below the EC50 |
| CN1CCC(/C=C/c2nc3cc(Br)ccc3n2Cc2ccc(Cl)cc2)C1 (stereo not drawn) [EBP772] |  | > 25 |  |
